Results of unrelated studies side by side (data: NIAID ChemDB).

Shared fields: target-level tests; species: HIV-1; target: Reverse transcriptase

ICn: concentration for n% inhibition. An empty or dashed field is not shown. Lines come from different laboratories, so protocols vary.

| SMILES | strain | read-out | read by | changes | value |
|---|---|---|---|---|---|
| Cc1cncn1CCC(=O)Nc1cccc(O)c1 | - | IC50 | RT activity / nucleotide incorporation | - | >100 µM |
| O=C(OCC(OC(=O)c1ccc(O)cc1)C(OC(=O)c1ccc(O)cc1)C(COC(=O)c1ccc(O)cc1)OC(=O)c1ccc(O)cc1)c1ccc(O)cc1 | - | IC50 | nucleotide incorporation | - | ~12 µM |
| Nc1nc2c(ncn2[C@@H]2C=C[C@H](COP(=O)(O)OP(=O)(O)OP(=O)(O)O)C2)c(=O)[nH]1 | - | Ki | - | RT-M184V | 30 µM |
| c1cnc2c(c1)ccc1cccnc12 | - | IC50 | nucleotide incorporation | - | 343 µM |
| OCc1cn(Cc2ccncc2)c(Sc2cc(Cl)cc(Cl)c2)c1C1CCCCC1 | - | IC50 | nucleotide incorporation / radiometric | - | 38.2 µM |
| COc1ccc(OC(=O)P(=O)(O)O)cc1 | - | IC50 | nucleotide incorporation | - | 5.4 µM |
| COc1ccc(CSc2nc(Cc3c(Cl)cccc3Cl)c(C)c(=O)[nH]2)cc1OC | - | IC50 | nucleotide incorporation / radiometric | RT-181I | >400 µM |
| Cc1cnc([N+](=O)[O-])n1CC(=O)Nc1cccc(O)c1 | - | IC50 | RT activity / nucleotide incorporation | - | >100 µM |
| CC(C)=C(CC/C(C)=C/CCC1=C(C)CC[C@@]2(C)CCC(C)(C)C[C@@H]12)C(C)CCCO | - | IC50 | nucleotide incorporation | - | >47 µM |
| O=C(OC1C[C@@](O)(C(=O)O)CC(O)[C@@H]1O)c1cc(O)c(O)c(O)c1 | - | IC50 | - | - | >333 µg/mL |
| NC(=O)OCc1cn(Cc2ccncc2)c(Sc2cc(Cl)cc(Cl)c2)c1C1CCC1 | - | IC50 | nucleotide incorporation / radiometric | RT-L100I | 13.9 µM |
| Nc1ncnc2c1ncn2[C@@H]1O[C@H](COP(=O)(O)OP(=O)(O)OP(=O)(O)O)C[C@@H]1F | - | Ki | nucleotide incorporation / radiometric | RT-A62V V75I F77L F116Y Q151M | 14 µM |
| Cc1c(Cc2c(Cl)cccc2Cl)nc(SCc2ccc(Br)cc2)[nH]c1=O | - | IC50 | nucleotide incorporation / radiometric | RT-181I | >400 µM |
| O=C(O[C@@H]1[C@H](O)C[C@@](OC(=O)c2cc(O)c(O)c(O)c2)(C(=O)O)C[C@H]1OC(=O)c1cc(O)c(O)c(O)c1)c1cc(O)c(O)c(O)c1 | - | IC50 | nucleotide incorporation | - | <20 µg/mL |
| Nc1ccn([C@@H]2CS[C@H](COP(=O)(O)OP(=O)(O)OP(=O)(O)O)O2)c(=O)n1 | - | Ki | nucleotide incorporation / radiometric | RT-Q151M | 2.3 µM |
| CCOC(=O)P(=O)(OCC)OCC | - | IC50 | nucleotide incorporation | - | 44 µM |
| Cc1cn([C@H]2C=C[C@@H](COP(=O)(O)OP(=O)(O)OP(=O)(O)O)O2)c(=O)[nH]c1=O | - | Ki | RT activity | RT-WT | 0.02 µM |
| C=C(C)[C@@H]1CC[C@]2(COC(C)=O)CC[C@]3(C)[C@H](CC[C@@H]4[C@@]5(C)CC[C@H](OC(C)=O)C(C)(C)[C@@H]5CC[C@]43C)[C@@H]12 | - | IC50 | nucleotide incorporation | - | 1.3 µM |
| CC(=O)OCc1cn(Cc2ccncc2)c(Sc2ccccc2)c1C(C)C | - | IC50 | nucleotide incorporation / radiometric | - | 0.3 µM |
| Cc1cn([C@H]2C=C[C@@H](COP(=O)(O)OP(=O)(O)OP(=O)(O)O)O2)c(=O)[nH]c1=O | - | Ki | nucleotide incorporation / radiometric | RT-Q151M | 0.85 µM |
| CN(C)[C@@H]1C(=O)C(C(N)=O)=C(O)[C@@]2(O)C(=O)C3=C(O)c4c(O)ccc(Cl)c4[C@@H](O)[C@H]3C[C@@H]12 | - | IC50 | nucleotide incorporation | - | 320 µM |
| CC(C)=CCC[C@@H](C)C1CC[C@]2(C)C3=CC[C@H]4C(C)(C)[C@@H](O)CC[C@]4(C)C3CC[C@@]12C | - | IC50 | nucleotide incorporation | - | 3.1 µM |
| O=C(OC[C@H]1O[C@@H](OC(=O)c2cc(O)c(O)c(O)c2)[C@H](O)[C@@H](O)[C@@H]1O)c1cc(O)c(O)c(O)c1 | - | IC50 | nucleotide incorporation | - | >20 µg/mL |
| COC(=O)C1(O)CC(O)C(OC(=O)/C=C/c2ccc(O)c(O)c2)C(OC(=O)/C=C/c2ccc(O)c(O)c2)C1 | - | IC50 | - | - | 94 µM |
| COc1ccc(CSc2nc(Cc3c(Cl)cccc3Cl)c(C)c(=O)[nH]2)c(OC)c1 | - | IC50 | nucleotide incorporation / radiometric | RT-181I | >400 µM |
| Cc1cncn1C(C)C(=O)Nc1cccc(O)c1 | - | IC50 | RT activity / nucleotide incorporation | - | >100 µM |
| NC(=O)OCc1cn(Cc2ccncc2)c(Sc2cc(Cl)cc(Cl)c2)c1C1CC1 | - | IC50 | nucleotide incorporation / radiometric | - | 0.55 µM |
| Cc1c(Cc2c(Cl)cccc2Cl)nc(SCc2cccc(F)c2)[nH]c1=O | - | IC50 | nucleotide incorporation / radiometric | RT-181I | >400 µM |
| OCc1cn(Cc2ccncc2)c(Sc2cc(Cl)cc(Cl)c2)c1C1CCC1 | - | IC50 | nucleotide incorporation / radiometric | - | 0.08 µM |
| Cc1c(Cc2c(Cl)cccc2Cl)nc(S(=O)(=O)Cc2ccc(Br)cc2)[nH]c1=O | WT | IC50 | nucleotide incorporation / radiometric | - | >400 µM |
| Cc1cn([C@@H]2C=C[C@H](COP(=O)(O)OP(=O)(O)OP(=O)(O)O)O2)c(=O)[nH]c1=O | - | Ki | - | - | 15 µM |
| Nc1ncnc2c1ncn2CCOCP(=O)(O)OP(=O)(O)OP(=O)(O)O | - | Ki | nucleotide incorporation / radiometric | RT-K65R | 1.7 µM |
| O=C(O)C1=CC(O)C(OC(=O)c2cc(O)c(O)c(O)c2)[C@H](O)C1 | - | IC50 | - | - | >333 µg/mL |
| Cc1c(Cc2c(Cl)cccc2Cl)nc(SCc2ccc(O)cc2)[nH]c1=O | - | IC50 | nucleotide incorporation / radiometric | RT-181I | >400 µM |
| CC(C)=CCC[C@H](C)C1CC[C@]2(C)C3=C(CC[C@@]12C)[C@@]1(C)CC[C@H](O)C(C)(C)[C@@H]1CC3 | - | IC50 | nucleotide incorporation | - | 3.8 µM |
| Cc1ncc([N+](=O)[O-])n1CCO | - | IC50 | RT activity / nucleotide incorporation | - | 0.094 µM |
| C=C(/C=C/c1ccc(O)c(OC)c1)O[C@H]1CCC23CC24CC[C@]2(C)[C@@H]([C@H](C)CCC=C(C)C)CC[C@@]2(C)[C@@H]4CC[C@H]3C1(C)C | - | IC50 | nucleotide incorporation | - | 2.2 µM |
| Cc1cn([C@H]2CC[C@@H](COP(=O)(O)OP(=O)(O)OP(=O)(O)O)O2)c(=O)[nH]c1=O | - | Ki | - | - | 3.2 µM |
| Cc1c(Sc2ccccc2)n(COCCO)c(=O)[nH]c1=O | - | IC50 | - | RT-H221Y | ~2 µM |
| Oc1cc(O)c2c(c1)O[C@H](c1ccc(O)c(O)c1)[C@H](O)C2 | - | IC50 | nucleotide incorporation | - | >20 µg/mL |
| CC(C(=O)CN1CCN(c2ccc(Br)cc2)CC1)N1C(=O)c2ccccc2C1=O | - | IC50 | - | - | 63.7 µM |
| COC(=O)P(=O)(OC)OC | - | IC50 | nucleotide incorporation | - | 32 µM |
| Cc1ncc([N+](=O)[O-])n1CCOC(c1ccccc1)c1ccsc1 | - | IC50 | RT activity / nucleotide incorporation | - | 19.6 µM |
| COC(=O)[C@]12CC[C@@H](C)[C@H](C)[C@H]1C1=CC[C@@H]3[C@@]4(C)CC[C@H](O)C(C)(C)[C@@H]4CC[C@@]3(C)[C@]1(C)CC2 | - | IC50 | nucleotide incorporation | - | 5.5 µM |
| O=C(O[C@@H]1[C@H](O)C[C@@](O)(C(=O)O)C[C@H]1OC(=O)c1cc(O)c(O)c(O)c1)c1cc(O)c(O)c(O)c1 | - | IC50 | - | - | 7.81 µM |
| COc1ccc(C(=O)OC[C@H](OC(=O)c2ccc(OC)cc2)[C@@H](COC(=O)c2ccc(OC)cc2)OC(=O)c2ccc(OC)cc2)cc1 | - | IC50 | nucleotide incorporation | - | >25 µM |

The first 6 rows once more:

| SMILES | strain | read-out | read by | changes | value |
|---|---|---|---|---|---|
| Cc1cncn1CCC(=O)Nc1cccc(O)c1 | - | IC50 | RT activity / nucleotide incorporation | - | >100 µM |
| O=C(OCC(OC(=O)c1ccc(O)cc1)C(OC(=O)c1ccc(O)cc1)C(COC(=O)c1ccc(O)cc1)OC(=O)c1ccc(O)cc1)c1ccc(O)cc1 | - | IC50 | nucleotide incorporation | - | ~12 µM |
| Nc1nc2c(ncn2[C@@H]2C=C[C@H](COP(=O)(O)OP(=O)(O)OP(=O)(O)O)C2)c(=O)[nH]1 | - | Ki | - | RT-M184V | 30 µM |
| c1cnc2c(c1)ccc1cccnc12 | - | IC50 | nucleotide incorporation | - | 343 µM |
| OCc1cn(Cc2ccncc2)c(Sc2cc(Cl)cc(Cl)c2)c1C1CCCCC1 | - | IC50 | nucleotide incorporation / radiometric | - | 38.2 µM |
| COc1ccc(OC(=O)P(=O)(O)O)cc1 | - | IC50 | nucleotide incorporation | - | 5.4 µM |